# Potato spindle tuber viroid, loop 6: variant abundance in plants

The pool varies loop 6 of the PSTVd intermediate strain in the pattern UNNNCGNNNG; wild type is UGACCGCGAG (upper and lower strand joined, each 5' to 3', the first 5 letters being the upper strand, closing pairs included).

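A pool of all variants was put on leaves of three Nicotiana benthamiana plants. Progeny were sequenced from the inoculated region (day 5), the margin of the inoculated leaf (day 10) and systemic leaves (day 12).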

Values are reads per thousand in the sample; higher means more abundant, 0 means not found.
Each value is the mean of three plants.
"Pool" is the share in the plasmid pool used as inoculum, on the same scale.
The inoculated region was read from the minus strand, the other sites from the plus strand.

UGGUCGGUGG (pool 0.183) read inoculated region 0.0599; leaf margin 0.00773; systemic leaves 0. UAAGCGUCCG (pool 0.209) read inoculated region 0.589; leaf margin 0.0696; systemic leaves 0.00684. For UGAUCGGUCG (pool 0.366) the result was inoculated region 0.107; leaf margin 0.00920; systemic leaves 0. UGCGCGUCGG (pool 0.209) read inoculated region 0.0838; leaf margin 0; systemic leaves 0. UAGCCGAUAG (pool 0.288) gave inoculated region 0.0820; leaf margin 0.101; systemic leaves 0. For UUCGCGAUUG (pool 0.353) the result was inoculated region 0.101; leaf margin 0; systemic leaves 0. UCUUCGAAAG (pool 0.314) read inoculated region 0.172; leaf margin 0.0260; systemic leaves 0. With UCAGCGACCG (pool 0.222) the assay gave inoculated region 0.0721; leaf margin 0.00773; systemic leaves 0. For UGCCCGGAAG (pool 0.118) the result was inoculated region 0.106; leaf margin 0.0169; systemic leaves 0.

UCUCCUCGAG (pool 0.0131) gave inoculated region 0; leaf margin 0; systemic leaves 0. UCGCCGGGCG (pool 0.157) gave inoculated region 0.0704; leaf margin 0; systemic leaves 0. For UACCCGGUAG (pool 0.170) the result was inoculated region 0.0603; leaf margin 0.0232; systemic leaves 0. UUGGCGUUCG (pool 0.445) gave inoculated region 0.114; leaf margin 0; systemic leaves 0. For UGUUCGAAUG (pool 0.418) the result was inoculated region 0.113; leaf margin 0; systemic leaves 0. UUGACGGAUG (pool 0.261) gave inoculated region 0.131; leaf margin 0; systemic leaves 0. For UAGCCGGUGG (pool 0.248) the result was inoculated region 0.0953; leaf margin 0.833; systemic leaves 0. For UGAUCGGUGG (pool 0.288) the result was inoculated region 0.0773; leaf margin 0.0168; systemic leaves 0. For UAUUCGCACG (pool 0.209) the result was inoculated region 0.137; leaf margin 0; systemic leaves 0.

UUCUCGUCGG (pool 0.288) read inoculated region 0.0527; leaf margin 0; systemic leaves 0. UCGACGGAGU (pool 0.0131) read inoculated region 0; leaf margin 0; systemic leaves 0.

Wild type was 20.7 per thousand in the pool and the most common sequence in every sample (inoculated region 195, 198, 203; leaf margin 629, 591, 734; systemic leaves 942, 870, 868).
Sequences that differ at fixed positions probably stem from PCR or sequencing errors, and defective variants can be carried along by functional ones.
Samples held 36,220 to 57,551 reads, so the smallest values rest on one or two reads.

Source: Wu et al. 2024 (doi:10.1371/journal.ppat.1012142), supplementary data.